Results taken from patent US20220000976A1 (priority 2018, published 2022).
Where a name gives a salt, the structure may show the parent alone.

Tested on: ROR-γt+ Treg cells
Details: sham versus I3S-treated mice

With O=S(=O)(O)Oc1c[nH]c2ccccc12 [I3S, Indoxyl sulfate] the “Percentage of total gut Treg cells (CD4+Foxp3+)” value was “did not display a statistically significant change”.
